In patent EP3603649A1 (priority 2018, dated 2020):

Test system: C. elegans animals expressing E200K mutated human PrP
Experiment: Neuronal loss (number of GFP positive PLM neurons) in transgenic C. elegans
Details: tested 1 to 500 µM vs vehicle

COC[C@H]1O[C@@H]2O[C@H]3[C@H](O)[C@@H](OC)[C@@H](O[C@H]4[C@H](O)[C@@H](OC)[C@@H](O[C@H]5[C@H](O)[C@@H](OC)[C@@H](O[C@H]6[C@H](O)[C@@H](OC)[C@@H](O[C@H]7[C@H](O)[C@@H](OC)[C@@H](O[C@H]8[C@H](O)[C@@H](OC)[C@@H](O[C@H]1[C@H](O)[C@H]2OC)O[C@@H]8COC)O[C@@H]7COC)O[C@@H]6COC)O[C@@H]5COC)O[C@@H]4COC)O[C@@H]3COC [DIMEB, heptakis(2,6-O-dimethyl)beta-cyclodextrin]
concentrations that significantly restored the number of mechano-sensory neurons: ≥ 10 µM
